A short description of the series: Teicoplanin concentration in peritoneal dialysis effluent (PDE) by HPLC. Type of series: in vivo, humans. The settings on record: ROC analysis, 36 PDAP patients; Youden index 0.9026. How it is done:
According to the patient’s PD plan, teicoplanin for injection was evenly distributed into each bag of PD fluid before the patient’s PD procedure to ensure that each bag of dialysis fluid entering the peritoneal cavity contained teicoplanin. […] The number of dialysis times per day is determined by the peritoneal function of each peritoneal dialysis patient.
All patients received peritoneal dialysate and serum samples. […] Serum samples were collected on the 4th day prior to drug administration. Blood samples were centrifuged at 3,000 rpm for 10 minutes. The upper serum layer was then transferred into labeled EP tubes and stored at −80°C. Peritoneal fluid samples were collected daily after the PD procedure. The peritoneal fluid bag was disinfected with iodine, and peritoneal effluent was withdrawn using a sterile syringe and stored at −80°C.
An Agilent Zorbax SB-C18 column (4.6 × 250 mm, 5 μm) was used. Methyl p-hydroxybenzoate served as the internal standard. The column temperature was kept at 35°C. The mobile phase comprised acetonitrile - 0.01 mol/L potassium dihydrogen phosphate (26:74, v/v, pH = 2.8 adjusted by phosphoric acid). A flow rate of 1 mL/min was set, with an injection volume of 40 μL. UV detection was conducted at 215 nm, while the column temperature remained at 40°C. […]

The values below come from article PMC11416981 (Frontiers in Pharmacology, 2024).

For the substance teicoplanin, the “ROC cutoff value of 5th day PDE teicoplanin concentration for curative outcome” value turned out to be 15.138 mg/L.
